Target: talin in HeLa cells (UniProt Q9Y490)
Assay: cell-based or functional assay

IpaA ΔVBS1-2 (deleted for residues IpaA 550-633)
percentage of foci forming talin coat structures: 19%

IpaA ΔVBS3 (deleted for residues IpaA 489-511)
percentage of foci forming talin coat structures: 25%

Reference: US20180264072A1, “Polypeptides comprising vinculin binding sites for the treatment of proliferation and/or adhesion related diseases” (published 2018)
